This is an account of results in patent US5132414A, “Dideoxynucleoside-5'-phosphonoformic acid compounds” (Dana-Farber Cancer Institute, Inc., priority 1990, dated 1992).

The test system of this data set is HIV-1. Briefly: Inhibition of HIV-1 replication in Jurkat cells (RT activity), drugs added 4 h before virus (prophylaxis model). Type of data set: cell-based. The protocol:
The final DMSO concentration in the medium was <0.1%. These solutions in cell growth medium were used in all of the biological tests described below.
In a second evaluation, the compound salt of Example 1, AZT, and PFA were compared as inhibitors of HIV-1 replication in Jurkat cells when added to the cultures 4 h before the virus (i.e., in a prophylaxis model). The drugs were present through the length of the experiment (4 days).

`CCOC(=O)P(=O)(O)OC[C@H]1O[C@@H](n2cc(C)c(=O)[nH]c2=O)C[C@@H]1N=[N+]=[N-]` [Example 1, 3'-Azido-3'-deoxy-5'-[P-(ethoxycarbonyl)-P-Hydroxyphosphinyl]thymidine]: the “therapeutic index (TI), IC50 (antiviral activity)/IC50 (cell growth inhibition) ratio” value is listed as “substantially more favorable”. Turning to `Cc1cn([C@H]2C[C@H](N=[N+]=[N-])[C@@H](CO)O2)c(=O)[nH]c1=O` [AZT, 3'-azidothymidine, reference compound], the “therapeutic index (TI), IC50 (antiviral activity)/IC50 (cell growth inhibition) ratio” value is on record as “approximately four-log”.
